A mixed list of measured activities; the numbers were collected in NIAID ChemDB.

Shared fields: target-level tests; organism: Hepatitis C virus; measure: IC50

ICn: concentration for n% inhibition.

C=CCC(NC(=O)C(=O)C(=O)C(CC=C)NC(=O)[C@H](CC1CCCCC1)NC(=O)[C@@H](NC(=O)[C@H](CC(C)C)NC(=O)[C@@H](CCC(=O)O)NC(=O)[C@H](CC(=O)O)NC(C)=O)[C@@H](C)CC)C(=O)O ; target: NS3/NS4A serine protease ; result: 0.00088 µM
Cc1ccc(S(=O)(=O)Nc2cc(-c3ccccc3)sc2C(=O)Nc2nccs2)cc1 ; target: NS3 ATPase ; result: 5–20 µM
C=C[C@@H]1C[C@]1(NC(=O)[C@@H]1C[C@@H](Oc2cc(-c3ccccc3)nc3cc(OC)ccc23)CN1C(=O)[C@@H](NC(=O)OC(C)(C)C)C(C)(C)C)C(=O)NS(=O)(=O)c1cccc(C#N)c1 ; target: NS3/NS4A protease ; strain or isolate: BMS ; result: <0.05 µM
O=C(Nc1ccc2c(c1)B(O)OC2)N[C@H]1CCCCC/C=C\[C@@H]2C[C@@]2(C(=O)NS(=O)(=O)C2CC2)NC(=O)C2C[C@@H](OC(=O)N3Cc4cccc(F)c4C3)CN2C1=O ; read by: FRET ; target: HCV NS3/4A 1a ; result: 5.6 nM
CC(C)N(c1cc(-c2ccccc2)sc1C(=O)O)S(=O)(=O)c1ccccc1Cl ; target: NS3 ATPase ; result: 5–20 µM
C=C[C@@H]1C[C@]1(NC(=O)[C@@H]1C[C@@H](Oc2cc(-c3ccccc3)nc3cc(OC)ccc23)CN1C(=O)[C@@H](NC(=O)OC(C)(C)C)C(C)(C)C)C(=O)NS(=O)(=O)c1c(Cl)cccc1Cl ; target: NS3/NS4A protease ; strain or isolate: BMS ; result: <0.05 µM
O=C(N[C@H]1CCCCC/C=C\[C@@H]2C[C@@]2(C(=O)NS(=O)(=O)C2CC2)NC(=O)C2C[C@@H](OC(=O)N3Cc4cccc(F)c4C3)CN2C1=O)c1ccc2c(c1)B(O)OC2 ; read by: FRET ; target: HCV NS3/4A 1a ; result: 1 nM
C=CCC(NC(=O)C(=O)C(=O)C(CC=C)NC(=O)[C@H](CC1CCCCC1)NC(=O)[C@@H](NC(=O)[C@H](CC(C)C)NC(=O)[C@@H](CC(C(=O)O)C(=O)O)NC(=O)[C@H](CC(=O)O)NC(C)=O)[C@@H](C)CC)C(=O)O ; target: NS3/NS4A serine protease ; result: 0.00025 µM
O=C(Nc1nn[nH]n1)c1cnn2c(C3CCCCC3)c(-c3ccc(F)cc3)cnc12 ; target: RNA-dependent RNA polymerase ; result: 1–10 µM
CCCCc1ccc(NC(=O)CSc2nc(C3CCCCC3)c(C#N)c(=O)[nH]2)c(C)c1 ; target: NS3/NS4A helicase ; result: <15 µM
Cc1ccc(-c2cc(NS(=O)(=O)c3cc(C)ccc3C)c(C(=O)O)s2)cc1 ; target: NS3 ATPase ; result: <5 µM
C=C[C@@H]1C[C@]1(NC(=O)[C@@H]1C[C@@H](Oc2cc(-c3ccccc3)nc3cc(OC)ccc23)CN1C(=O)[C@@H](NC(=O)OC(C)(C)C)C(C)(C)C)C(=O)NS(=O)(=O)c1ccc(C#N)cc1 ; target: NS3/NS4A protease ; strain or isolate: BMS ; result: <0.05 µM
N#Cc1c(-c2ccc(Cl)cc2)nc(SCc2ccccc2)[nH]c1=O ; target: NS3/NS4A helicase ; result: <15 µM
Cc1ncsc1CCOc1cccc(-c2cnc3c(-c4nn[nH]n4)cnn3c2C2CCCCC2)c1 ; target: RNA-dependent RNA polymerase ; result: 1–10 µM
CN(C(=O)c1ccc(Cl)nc1Cl)c1cc(-c2ccccc2)sc1C(=O)O ; target: NS3 ATPase ; result: 5–20 µM
C=C[C@@H]1C[C@]1(NC(=O)[C@@H]1C[C@@H](Oc2cc(-c3ccccc3)nc3cc(OC)ccc23)CN1C(=O)[C@@H](NC(=O)OCc1ccccc1)C(C)(C)C)C(=O)NS(=O)(=O)C1CC1 ; target: NS3/NS4A protease ; strain or isolate: BMS ; result: <0.05 µM
O=C(O)c1cnn2c(-c3ccccc3)cc(=O)[nH]c12 ; target: RNA-dependent RNA polymerase ; result: >10 µM
N#Cc1c(-c2ccc(Cl)cc2)nc(Nc2ccc(Cl)cc2)[nH]c1=O ; target: NS3/NS4A helicase ; result: 15–40 µM
CC[C@@H]1C[C@]1(NC(=O)[C@@H]1C[C@@H](Oc2cc(-c3ccccc3)nc3cc(OC)ccc23)CN1C(=O)[C@@H](NC(=O)OC1CCCC1)C(C)C)C(=O)NS(=O)(=O)C1CC1 ; target: NS3/NS4A protease ; strain or isolate: BMS ; result: <0.05 µM
N#Cc1c(-c2cccs2)nc(SCc2ccccc2)[nH]c1=O ; target: NS3/NS4A helicase ; result: 15–40 µM
CCCNC(=O)N[C@H](C(=O)N1C[C@H](Oc2cc(-c3ccccc3)nc3cc(OC)ccc23)C[C@H]1C(=O)N[C@]1(C(=O)NS(=O)(=O)C2CC2)C[C@H]1CC)C(C)C ; target: NS3/NS4A protease ; strain or isolate: BMS ; result: <0.05 µM
NC(=O)[C@H](Cc1ccc(O)cc1)NC(=O)c1cnn2c(C3CCCCC3)c(-c3ccc(F)cc3)cnc12 ; target: RNA-dependent RNA polymerase ; result: <1 µM
C=CCC(NC(=O)[C@H](C)NC(=O)[C@@H](NC(=O)[C@@H](NC(=O)[C@H](CC(=O)O)NC(C)=O)C(C)C)C(C)C)C(=O)C(=O)C(=O)N[C@@H](C)C(=O)O ; target: NS3/NS4A serine protease ; result: 4 µM
COCC(=O)N(Cc1cccc(Cl)c1)c1cc(-c2ccccc2)sc1C(=O)O ; target: NS3 ATPase ; result: >20 µM
O=C(O)c1cc2nc(-c3ccc(OCc4ccccc4)cc3)c(CC3CCCCC3)c(=O)n2[nH]1 ; target: RNA-dependent RNA polymerase ; result: 1–10 µM
C=CCOC(=O)N[C@H](C(=O)N1C[C@H](Oc2cc(-c3ccccc3)nc3cc(OC)ccc23)C[C@H]1C(=O)N[C@]1(C(=O)NS(=O)(=O)C2CC2)C[C@H]1C=C)C(C)(C)C ; target: NS3/NS4A protease ; strain or isolate: BMS ; result: <0.05 µM
N#Cc1c(C2CCCCC2)nc(SCC(=O)Nc2cc(Cl)cc(Cl)c2)[nH]c1=O ; target: NS3/NS4A helicase ; result: <15 µM
O=C(O)c1sc(-c2ccccc2)cc1N(Cc1ccccc1)C(=O)CC1CCCC1 ; target: NS3 ATPase ; result: <5 µM
CC[C@H](C)[C@H](NC(=O)[C@H](CC(C)C)NC(=O)[C@@H](CC(C(=O)O)C(=O)O)NC(=O)[C@H](CC(=O)O)NC(C)=O)C(=O)N[C@H](C(=O)N[C@@H](CS)C(=O)O)C1CCCCC1 ; target: NS3/NS4A serine protease ; result: 6.8 µM
CN(C(=O)c1sc2ccccc2c1Cl)c1cc(-c2ccccc2)sc1C(=O)O ; target: NS3 ATPase ; result: 5–20 µM
N#Cc1c(C2CCCCC2)nc(SCc2cccc([N+](=O)[O-])c2)[nH]c1=O ; target: NS3/NS4A helicase ; result: <15 µM
C/C(=C\CCC1=CC[C@H](C2=CC(=O)O[C@@H]2O)O[C@H]1O)CCC1C(C)CCCC1(C)C ; target: NS3 ATPase activity ; result: 70 µM
Cc1ccc(S(=O)(=O)Nc2cc(-c3ccc(C(N)=O)cc3)sc2C(=O)O)cc1 ; target: NS3 ATPase ; result: <5 µM
C=CC1CC1(NC(=O)OC(C)(C)C)C(=O)N1C[C@H](Oc2cc(-c3ccccc3)nc3cc(OC)ccc23)C[C@H]1C(=O)N[C@]1(C(=O)NS(=O)(=O)C2CC2)C[C@H]1C=C ; target: NS3/NS4A protease ; strain or isolate: BMS ; result: <0.5 µM
N#Cc1c(C2CCCCC2)nc(SCc2ccccc2)[nH]c1=O ; target: NS3/NS4A helicase ; result: 15–40 µM

Lines come from different laboratories, so protocols vary. a–b is a range or a potency band.